The test system of one assay is P. aeruginosa PA14. Description: Biofilm inhibition assay on abiotic plastic surface (crystal violet, 550 nm). The settings on record: enzyme ~0.02 mg/ml, added at start, 6-8 hrs, compared to PBS buffer control.
In assay [1] the test system is Pseudomonas aeruginosa biofilm. Description: Sugar release / solubilization of dehydrated P. aeruginosa biofilm by carbohydrate-active enzymes. The following applies: for percentage of biofilm carbohydrate solubilized: carbohydrate released by sonication set at 100%, enzyme blank used; for digestion (solubilization, hydrolysis) of the Pseudomonas aeruginosa biofilm, sugar release: individual enzymes, dehydrated biofilm in PBS, 37° C., 19 hr / overnight.

B1: Dtur: Dictyoglomus turgidum AmyA enzyme (gene Dtur_0675) represented by SEQ ID NO:15 (protein, listed as Dictyoglomus turgidum)
chain: DIPLNIYDPKVQKVERPLYLAIIWHNHQPLYYDPDQNINILPWVRMHAIKDYYDMAYILKNYPQIKANFNMVPSLLYQLELYTKKGIKDKYLILTEKPADQLTIEDKEFILRRFFDVNWDRIIKKFPRYWELLNKRGQSVDDVVIAKAIQKFTTQDFRDLQVWFNLAWFDPDFQKYDKDLSRLIEKGKNFTEEDKKVVINKQYEIMSKIIPLYAELQKTKQIEVTTTPFFHPIMPLLVDIKSAKIAVQDIALPNATINYSDDTSAQLSMAVNYYKKFFKDTPKGLWPSEGSVSQDIIPIVGNSGFLWMASDEDVLSKSLNTPILRDSRGNVTNPDVLYQPYIVEEQGKKVYVVFRDKNLSDKIGFVYSGMKGENAAKDFVNRLENIYERVKDDKKSYLVTVILDGENCWEYYENDGKEFLNTLYKLLTDSPYIETVRLTDYLNKFPPTKKIERLHSGSWIDGTFLTWVGEQEENKAWEILDKARTELIYETVKQKKTISPVLNPDLLRNNIEKAWFELYAAEGSDWFWWYGDDQDSTNDLAFDELFRKHLINVYKLIGKEVPQELFLPIVKIGEEKPVQSLQAKFTPKIDGLINPEDEWKNAAIYLAKKGTGLSTKPSDFIEKVYLGLDNDNVYFLIESKTNLKDYLGKPYFLAVYFSNPNQKEYNLYPRKGSQTLGYGIAYELLIDFSKISSLGEVDAILNQATGNNSWRQQSTLKAGVSEKYIEVGVPFKEIKVQGREQIAMNVIFGKEEPIDVVPYYVPIYLTVPEKKLEITYFSIDDPTGDDYGWGKVVYPTAPVFKPGVFDIIHVEMGKSKDDIVFKIKIRGDLENPWGSPTGVSVQTIDIYINDGKESTYYYQALPGRQANIPEGWNKAIWAEGWIQELIIPTLDEKGKVQLKEIKGVVQLSTDPTERTIIISVPEKYLGPVTPDWKILVILCGQEGYPRPGSWRVREVEEEAKQWRFGGGDDFYGDPNIIDMIVPPGMKQEDILSKWVSSEDEEENVYVELPLIPLRVLMSQ
Turning to B1, the “inhibition of biofilm formation” value in the assay with P. aeruginosa PA14 was “effective in inhibiting the formation of biofilm”.

B2: P045: Clostridium thermocellum CelK enzyme (gene Cthe_0412) represented by SEQ ID NO:9; cellulase (protein, listed as Clostridium thermocellum)
chain: LEDKSPKLPDYKNDLLYERTFDEGLCFPWHTCEDSGGKCDFAVVDVPGEPGNKAFRLTVIDKGQNKWSVQMRHRGITLEQGHTYTVRFTIWSDKSCRVYAKIGQMGEPYTEYWNNNWNPFNLTPGQKLTVEQNFTMNYPTDDTCEFTFHLGGELAAGTPYYVYLDDVSLYDPRFVKPVEYVLPQPDVRVNQVGYLPFAKKYATVVSSSTSPLKWQLLNSANQVVLEGNTIPKGLDKDSQDYVHWIDFSNFKTEGKGYYFKLPTVNSDTNYSHPFDISADIYSKMKFDALAFFYHKRSGIPIEMPYAGGEQWTRPAGHIGVAPNKGDTNVPTWPQDDEYAGRPQKYYTKDVTGGWYDAGDHGKYVVNGGIAVWTLMNMYERAKIRGIANQGAYKDGGMNIPERNNGYPDILDEARWEIEFFKKMQVTEKEDPSIAGMVHHKIHDFRWTALGMLPHEDPQPRYLRPVSTAATLNFAATLAQSARLWKDYDPTFAADCLEKAEIAWQAALKHPDIYAEYTPGSGGPGGGPYNDDYVGDEFYWAACELYVTTGKDEYKNYLMNSPHYLEMPAKMGENGGANGEDNGLWGCFTWGTTQGLGTITLALVENGLPSADIQKARNNIAKAADKWLENIEEQGYRLPIKQAEDERGGYPWGSNSFILNQMIVMGYAYDFTGNSKYLDGMQDGMSYLLGRNGLDQSYVTGYGERPLQNPHDRFWTPQTSKKFPAPPPGIIAGGPNSRFEDPTITAAVKKDTPPQKCYIDHTDSWSTNEITINWNAPFAWVTAYLDEIDLITPPGGVDPEEPEVIYGDCNGDGKVNSTDAVALKRYILRSGISINTDNADVNADGRVNSTDLAILKRYILKEIDVLPHK
Regarding B2, the “inhibition of biofilm formation” value with P. aeruginosa PA14 is “effectively inhibited”. Further, in assay [1], the “percentage of biofilm carbohydrate solubilized” value (“percentage” for short) is “approximately 50%” and the “digestion (solubilization, hydrolysis) of the Pseudomonas aeruginosa biofilm, sugar release” value (shortened to “digestion (solubilization, hydrolysis)”) was “significantly greater digestion of the biofilm than the other fifteen enzymes”.

B3: P042: Clostridium thermocellum CelO enzyme (gene Cthe_2147) represented by SEQ ID NO:6; cellulase (protein, listed as Clostridium thermocellum)
chain: DDTSEEPALEGLSIHYMDGTLDVKYQSMRPYIIIHNNSGMDVDMADLRVRYYYEKEGVTEEVLTCFYTAIGADKIFAEFHPELGYAEIGFTSDAGIIKSGGNSGQLQLVLKKISNGYYDQSNDYSYDPSYTDYAEYDKITLYYKGKLVWGKEGPPPPPEPTPPPNNDDWLHVEGNLIKDAQGNTVYLTGINWFGFETDGANGFYGLNKCNLEDSLDLMAKLGFNILRIPISAEIILQWKNGERVETSFVNTYENPRLDGLSSLEILDYTINHMKKNGMKAMLDMHSSTKDSYQENLWYNKDITMEEFIEAWKWIVERYKDDDTVIAVDLKNEPHGKYSGPNIAKWDDSDDPNNWKRAAEIIAEEILAINPNLLIVVEGVEAYPMEGYDYTNCGEFTTYCNWWGGNLRGVADHPVVISAPDKLVYSVHDYGPDIYMQPWFKKDFDINTLYEECWYPNWYYIVEQNIAPMLIGEWGGKLINENNRKWLECLATFISEKKLHHTFWAFNPNSADTGGLMLEDWKTVDEEKYAIIEPTLWKKGLDHVIPLGGITEDTFKYGDVNGDFAVNSNDLTLIKRYVLKNIDEFPSSHGLKAADVDGDEKITSSDAALVKRYVLRAITSFPVEENQNE
Turning to B3, the “inhibition of biofilm formation” value in the assay on P. aeruginosa PA14 is given as “effectively inhibited”. In addition, in assay [1], the “percentage” value is given as “approximately 50%” and the “digestion (solubilization, hydrolysis)” value is given as “significantly greater digestion of the biofilm than the other fifteen enzymes”.

B4: P130: Clostridium thermocellum ManA enzyme (gene Cthe_0032) represented by SEQ ID NO:3; beta-mannanase (protein, listed as Clostridium thermocellum)
chain: AYSLPVDVEAEDCTLGNGAVVTTNVYGTQYPGYSGDGFVWVANSGTITLEVTIPENGMYELSTRCWMYLGKEDETRMQVISINGKSHSNYFIPNKGQWIDYSFGFFYLEAGKATIEIGSSGSWGFILYDKIYFDHADMPDHIIDPTPCDPNATPETRALMKYLTSVYGKYVISGQQEIYGNGNDGNYELEFDYIYEKTGKYPAIRGFDFMNYNPLYGWEDGTTARIIDWVKNRGGIATACWHINIPRDFASYKLGEPVDWTNCTYKPTSSFNTANCLDETTKEHAYLMMAIEDLAEQLLILQEQNIPILFRPFHEAEGYNNTDGSGAWFWWGSAGAEVYKELWKLLYKTLTEKYGIHNLIWEVNLYTYANSYEWYPGDEYVDIIGYDKYEGSPNTWGTSAASSLFLTLVNYTNDTKMVALTENDVIPDIQNIVNEEAWWLYFCPWYGDFLMSPRYNDPVLLNTIYNSEYVITLDELPENLYEYDGEIPDINYGDLNNDGNINSTDYMILKKYILKVLERMNVPEKAADLNGDGSINSTDLTILKRFIMKAITKFPVTQK
Take B4: the “inhibition of biofilm formation” value with P. aeruginosa PA14 is recorded as “effectively inhibited”. Also, in assay [1], the “percentage” value is recorded as “approximately 20%” and the “digestion (solubilization, hydrolysis)” value is “significantly greater digestion of the biofilm than the other fifteen enzymes”.

B5: Aaci: Alicyclobacillus acidocaldarius alpha-amylase represented by SEQ ID NO:24 (protein, listed as Alicyclobacillus acidocaldarius)
chain: FENTRSVGTERVLAATAADSTNASPPTGASAGGGTAGETYSNAVQIVSGNGFRAGNGATVVLAVNGLNLNPSSFKVVVSNSLNGVIDVTSDSVLTGPNSIALHLPAGDDGLGAGTYTVTVESGGDSVSTPSGQGLQVMPYTTADTIQWDGIYTSDGAMYVSDPNPSPGQEVTISLRAYSGNLTKVILNCWDTAQNKGFQVEMSPGRTFGPYQLWSATIPASNGGTIYYRFDIYDGTSFACLSGDGLHTSDDINNNFPLPVGTVTLSTLQANPGDTVTVSDPVGDFAGSQDQPNHTVIRFVNSSGETAATVNGTNASWNSVQFTVPQSLPNGLYRVEIDTVAKDADGVVNVELDRSAELIVGPLPAWMQAYAHDSFQAFYRSPFGAVSTGTPITLRLRAPLSVKSATLRLWGAADQSGEIDLPMQKLQMSGDELAQQTGVQDINDYTWWTVTIPAADVTTPGTMWYQFVTETDTGQVVYYDDNGAQLEGPGQVGLSSDGPSYQISVYERGFQTPDWLKHAVIYEIMPDRFYNGNIATEENPNTQKGIYVGADGTESLGPIQFHENWDSPPYDPNIPPLSDPKIASLRGNGQWNIDFFGGDLQGIEDKLDYLKSLGVNTLYLMPVFEAESNHKYDTADYFKIDPGFGTQQDWLNLVQAAHAKGFHIILDGVFEDTGSDSVYFNKFGNFHSNGAWQAYLKNQPSLSPYYSWYVWTGNTSNPYDSWFQIDTLPLTDTSNPAYQRFVYGSDNSVARVWIREGADGWRLDSADNGNFNTAWWGGFRQAVKSIDPNAAIIGEIWDNATNDNGTDWLTGSTFDSVMNYQFRNAVIDFFRGTYNDGNVQHHAVDAAGFNQELMRLYSEYPLQSFYSMMNLVDSQDTMRILTILENAPQPGDLSALQQDEYRPSPAAEQLGIERLKLVSDFQFSFPGDPTIFYGDEAGLTGYSDPLNRRTYPWDNQNLDLLNHYRKLGAIRNANPVLQTGDFTPLYAQGMVYAFARTIRNGRDVFGVPAEDATAIVAINNQNQAITVTIPTDGTVADGSTMLDELNNQWYKVQNGGITLTLQSYQGAILVTPSDAPMAYLQEEDSQNEIAWTPVQGAIGYRVWRQNPNGQWVPFGPVLPATDLSVTVERDAYAQTFAVQALFSASDHAQSPVSAPKTVSLPVDVPAVRLSQPIVSGRVVGDRAMVSITPVSGATQYVIYQRQGDGSYAPVATVSTSGDSAAIGEVPAQGPANSPHATIRVTVPVPAGFSSVTYRVAAQNEDGQAVTNPLTLSLSKK
On to B5, for which, in the assay on P. aeruginosa PA14, the “inhibition of biofilm formation” value was “effective in inhibiting the formation of biofilm”.

B6: Bst: Bacillus stearothermophilus AmyS enzyme (UniProt P06279) represented by SEQ ID NO:18 (protein, listed as Bacillus stearothermophilus)
chain: AAPFNGTMMQYFEWYLPDDGTLWTKVANEANNLSSLGITALWLPPAYKGTSRSDVGYGVYDLYDLGEFNQKGAVRTKYGTKAQYLQAIQAAHAAGMQVYADVVFDHKGGADGTEWVDAVEVNPSDRNQEISGTYQIQAWTKFDFPGRGNTYSSFKWRWYHFDGVDWDESRKLSRIYKFRGIGKAWDWEVDTENGNYDYLMYADLDMDHPEVVTELKSWGKWYVNTTNIDGFRLDAVKHIKFSFFPDWLSDVRSQTGKPLFTVGEYWSYDINKLHNYIMKTNGTMSLFDAPLHNKFYTASKSGGTFDMRTLMTNTLMKDQPTLAVTFVDNHDTEPGQALQSWVDPWFKPLAYAFILTRQEGYPCVFYGDYYGIPQYNIPSLKSKIDPLLIARRDYAYGTQHDYLDHSDIIGWTREGVTEKPGSGLAALITDGPGGSKWMYVGKQHAGKVFYDLTGNRSDTVTINSDGWGEFKVNGGSVSVWVPRKTTVSTIAWSITTRPWTDEFVRWTEPRLVAWP
Take B6: the “inhibition of biofilm formation” value in the assay with P. aeruginosa PA14 is listed as “effective in inhibiting the formation of biofilm”.
